# Data: patent US10441588B2, “Methods and compositions for treating bacterial infection” (Curators of the University of Missouri, priority 2012, dated 2019)
# Assays:
# TSST-1 = TSST-1 production in S. aureus
# pyocyanin = assay: Pyocyanin production in P. aeruginosa
structure (smiles),measurement,setting,value
"COc1ccc2c(c1)-c1nc(SCC(F)(F)F)n(C)c(=O)c1C(C)(C)C2 [CCG-211790, 9-methoxy-3,5,5-trimethyl-2-((2,2,2-trifluoroethyl)thio)-5,6-dihydrobenzo[h]quinazolin-4(3H)-one]",production of TSST-1 in S. aureus,TSST-1,reduction
same,production of pyocyanin in P. aeruginosa,pyocyanin,reduction
